Protein sequences can lack the tags named with them. The exact form of at least one protein or probe is not confirmed. At least one verdict rests on a figure or table, not on a statement of the authors.
Columns and labels:
[1] = target: T1, His-CioR (Chromobacterium violaceum) (UniProt Q7NRW9); experiment: EMSA; conditions: 20 mM Tris-HCl pH 8.0, 50 mM NaCl, 1.5 mM MgSO4, 0.5 mM CaCl2, 0.1 mg/mL BSA, 1 mM DTT, 0.05% NP-40, 10% glycerol, 0.1 mg/mL salmon sperm DNA, 50 ng probe, 20 uL, 37 C, recombinant protein, residues 1-191, probe letters rebuilt from the primers and the genome
T1 sequence (looked up): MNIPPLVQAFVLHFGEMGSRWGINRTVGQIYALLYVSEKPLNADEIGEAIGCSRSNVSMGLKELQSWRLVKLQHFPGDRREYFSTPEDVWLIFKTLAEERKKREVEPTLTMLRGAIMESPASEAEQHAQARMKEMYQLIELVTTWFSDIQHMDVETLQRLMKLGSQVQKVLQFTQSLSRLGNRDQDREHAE

[2] = target: T1, His-CioR (Chromobacterium violaceum); experiment: competition with a labelled probe; conditions: 10-fold excess unlabeled specific probe vs N1, 1 uM His-CioR; 20 mM Tris-HCl pH 8.0, 50 mM NaCl, 1.5 mM MgSO4, 0.5 mM CaCl2, 0.1 mg/mL BSA, 1 mM DTT, 0.05% NP-40, 10% glycerol, 0.1 mg/mL salmon sperm DNA, 50 ng probe, 20 uL; 37 C; recombinant protein; residues 1-191; probe letters rebuilt from the primers and the genome

Measured: binding result

AAATGCAGCACGAAAGCCTGCACCAGAGGTGGAATATTCATGACATTCTCAACTTTCAGGAATTTCTGAAACTTTGATATGAATCATAGTTGCCCAAGATAGTTCGGGTCAAGATGAACAAAGTCTGATCTGTAGGCTTGACCATACCTCCATGTCATGAATGCGCGCGCAAAAAAGGCCATGCATCGCATGGCCTGGATCGTGGAGAGCCGGGCGGCGTTCCGACTCGCGGCTGGCCGCGACTCCGTTACCGCAGCAGGATCGCGCGAAAATCGTTGACGTTGGTATGGGTGGGGCCGGTGACCAGCAGATCGCCCAGCG (double strand) [cioRAB-FAM promoter probe]
binds: [1]; salmon sperm DNA 0.1 mg/mL, label: 6-FAM (5' of reverse primer)

AAATGCAGCACGAAAGCCTGCACCAGAGGTGGAATATTCATGACATTCTCAACTTTCAGGAATTTCTGAAACTTTGATATGAATCATAGTTGCCCAAGATAGTTCGGGTCAAGATGAACAAAGTCTGATCTGTAGGCTTGACCATACCTCCATGTCATGAATGCGCGCGCAAAAAAGGCCATGCATCGCATGGCCTGGATCGTGGAGAGCCGGGCGGCGTTCCGACTCGCGGCTGGCCGCGACTCCGTTACCGCAGCAGGATCGCGCGAAAATCGTTGACGTTGGTATGGGTGGGGCCGGTGACCAGCAGATCGCCCAGCG (double strand) [cioRAB promoter unlabeled probe]
binds: [2] | [1]; H2O2 | [1]; iron + EDTA | [1]; no stressor, ethidium bromide detection | [1]; streptonigrin | [1]; zinc + EDTA
